Measured values from several laboratories, pooled; numbers as filed in NIAID ChemDB.

Common to all: whole-cell or culture tests; species: HIV-1

a–b is a range or a potency band. Neighbouring rows are from separate reports. An empty or dashed field is not shown. ECn is the concentration giving n% inhibition of infection, replication or growth.

| SMILES | endpoint | strain or isolate | cell line | changes | read by | value |
|---|---|---|---|---|---|---|
| O=C(C(=O)N1CCN(C(=O)c2ncc[nH]2)CC1)c1c[nH]c2cccc(F)c12 | EC50 | - | HeLa + HELA CD4+/CCR5 | - | luciferase | <10 µM |
| C=CCN(C(=O)[C@H](Cc1cc(F)cc(F)c1)NC(=O)c1cccc(S(=O)(=O)N[C@@H](Cc2cc(F)cc(F)c2)C(=O)N(CC=C)c2ccc(OC)cc2)c1)c1ccc(OC)cc1 | EC50 | NL4-3 | MT-2 | - | luciferase | 0.77 µM |
| Cc1cccc(Cl)c1OCCNc1ccc(-c2cnc(C)c([C@H](OC(C)(C)C)C(=O)O)c2N2CCC(C)(C)CC2)nc1 | EC50 | NL4-3 | MT-2 | - | luminescence | 0.0016 µM |
| CCCCC(CC)COC(=O)c1cc(NC(=S)OC(C)C)ccc1Cl | EC50 | - | CEM | RT-E138K | syncytia | 19.4 µM |
| CN(C)S(=O)(=O)N(C)C1COCCn2c1nc(C(=O)NCc1ccc(F)cc1)c(O)c2=O | EC50 | - | MT-4 | - | p24 | <1 µM |
| C[C@@H]1CN(C(=O)c2ccccn2)CCN1C(=O)C(=O)c1c[nH]c2cccc(Cl)c12 | EC50 | - | HeLa + HELA CD4+/CCR5 | - | luciferase | <10 µM |
| O=C1c2c(O)c(=O)n(C34CC5CC(CC(C5)C3)C4)c(=O)n2CCN1Cc1ccc(F)cc1 | EC95 | - | MT-4 | - | p24 | <10 µM |
| O=C(C(=O)N1CCN(C(=O)c2ccccc2)CC1C(F)(F)F)c1c[nH]c2cccc(F)c12 | EC50 | - | HeLa + HELA CD4+/CCR5 | - | luciferase | <10 µM |
| COc1cc(F)ccc1OCCN(C)c1ccc(-c2cnc(C)c([C@H](OC(C)(C)C)C(=O)O)c2N2CCC(C)(C)CC2)nc1 | EC50 | NL4-3 | MT-2 | - | luminescence | 0.0016 µM |
| CC(=O)c1c(C)nc(-c2ccccc2)nc1NC(=O)c1ccccc1 | EC50 | 10076-4 | HeLa | - | GFP / fluorescence | 0.1 µM |
| CC1CN(C(=O)c2ccccc2)C(C)CN1C(=O)C(=O)c1c[nH]c2cccc(F)c12 | EC50 | - | HeLa + HELA CD4+/CCR5 | - | luciferase | <10 µM |
| CC(C)n1c(=O)c(O)c2n(c1=O)CCN(Cc1ccccc1C#N)C2=O | EC50 | - | MT-4 | - | p24 | <10 µM |
| COc1ccc(N(C)C(=O)[C@H](Cc2ccccc2)NC(=O)Cn2c(=O)c3ccccc3n(CC(=O)N[C@@H](Cc3ccccc3)C(=O)N(C)c3ccc(OC)cc3)c2=O)cc1 | EC50 | NL4-3 | MT-2 | - | luciferase | 0.07 µM |
| Cc1ccc(C)n1-c1ccc(C(=O)O)c(O)c1 | EC50 | 93TH051 X4R5 CLADE E | PBMC + MT-2 | - | p24 | 4.87 µM |
| CC1(C)c2nc(C(=O)NCc3ccc(F)cc3)c(O)c(=O)n2CCN1Cc1ncco1 | EC95 | - | MT-4 | - | p24 | <1 µM |
| O=C(C(=O)N1CCN(C(=O)c2ccccc2)CC1)c1c[nH]c2c(Br)cc(F)cc12 | EC50 | - | HeLa + HELA CD4+/CCR5 | - | luciferase | <10 µM |
| Cc1cccc(C)c1OCCN(C)c1ccc(-c2cnc(C)c([C@H](OC(C)(C)C)C(=O)O)c2N2CCC(C)(C)CC2)cn1 | EC50 | NL4-3 | MT-2 | - | luminescence | 0.0025 µM |
| CC1CC(C)CN(S(=O)(=O)c2ccccc2[N+](=O)[O-])C1 | EC50 | 6463-13 | HeLa | - | GFP / fluorescence | 1 µM |
| COc1ccc(N(C)C(=O)C(Cc2cc(F)cc(F)c2)NC(=O)c2cccc(C(=O)N[C@@H](Cc3cc(F)cc(F)c3)C(=O)N(C)c3ccc(OC)cc3)c2)cc1 | EC50 | NL4-3 | MT-2 | - | luciferase | 0.04 µM |
| Cn1ccc(CN2CCn3c(nc(C(=O)NCc4ccc(F)cc4)c(O)c3=O)C23CCOCC3)n1 | EC95 | - | MT-4 | - | p24 | <1 µM |
| C=CCN(C(=O)[C@H](Cc1cc(F)cc(F)c1)NC(=O)c1ccc(F)c(C(=O)N[C@@H](Cc2cc(F)cc(F)c2)C(=O)N(CC=C)c2ccc(OC)cc2)c1)c1ccc(OC)cc1 | EC50 | NL4-3 | MT-2 | - | luciferase | 0.04 µM |
| CC(=O)NC1CN(C)CCn2c1nc(C(=O)NCc1ccc(F)cc1)c(O)c2=O | EC95 | - | MT-4 | - | p24 | <50 µM |
| CCCOC(=S)Nc1ccc(Cl)c(C(=O)OC(C)C)c1 | EC50 | - | CEM | RT-E138K | syncytia | 2.06 µM |
| CN(CC1c2nc(C(=O)NCc3ccc(F)cc3)c(O)c(=O)n2CCN1C)C(=O)c1ccccn1 | EC50 | - | MT-4 | - | p24 | 1–10 µM |
| O=C1c2c(O)c(=O)n(C3CCCCC3)c(=O)n2CCN1Cc1ccc(F)cc1 | EC50 | - | MT-4 | - | p24 | <10 µM |
| CN1C(=O)CN2CCn3c(nc(C(=O)NCc4ccc(F)cc4)c(O)c3=O)C1C2 | EC50 | - | MT-4 | - | p24 | <50 µM |
| CC(C)[C@H](NC(=O)OCc1ccccn1)C(=O)N[C@@H](Cc1ccccc1)[C@@H](O)C[C@H](Cc1ccccc1)NC(=O)OCc1cccnc1 | EC95 | NL4-3 | MT-4 | PR-L10R | p24 | 0.8 µM |
| CN1CCN(C(=O)c2ccc3c(=O)c4ccccc4[nH]c3c2)CC1 | EC50 | - | CEM | RT-V106A | syncytia | 1.751 µM |
| C=CCN(C(=O)[C@H](Cc1cc(F)cc(F)c1)NC(=O)NS(=O)(=O)N[C@@H](Cc1cc(F)cc(F)c1)C(=O)N(CC=C)c1ccc(OC)nc1)c1ccc(OC)nc1 | EC50 | NL4-3 | MT-2 | - | luciferase | 0.58 µM |
| CCCCCOC(=S)Nc1ccc(Cl)c(C(=O)OC(C)C)c1 | EC50 | - | CEM | RT-Y181C | syncytia | 17.45 µM |
| Cc1ccc(OCCNc2ccc(-c3cnc(C)c([C@H](OC(C)(C)C)C(=O)O)c3N3CCC(C)(C)CC3)cn2)c(C)c1 | EC50 | NL4-3 | MT-2 | - | luminescence | 0.004 µM |
| COc1ccc(N(C)C(=O)[C@H](Cc2ccccc2)NC(=O)CC(C)(C)CC(=O)N[C@@H](Cc2ccccc2)C(=O)N(C)c2ccc(OC)cc2)cc1 | EC50 | NL4-3 | MT-2 | - | luciferase | 3.98 µM |
| COc1ccc(-n2c(=O)c(O)c3n(c2=O)CCN(Cc2ccc(F)cc2)C3=O)cc1 | EC50 | - | MT-4 | - | p24 | <10 µM |
| CCOC(=O)COc1cc(NC(=S)OC(C)C)ccc1Cl | EC50 | IIIB | CEM | - | syncytia | 1.175 µM |
| Cc1cc(Cl)ccc1OCCOc1ncc(-c2cnc(C)c([C@H](OC(C)(C)C)C(=O)O)c2N2CCC(C)(C)CC2)cc1F | EC50 | NL4-3 | MT-2 | - | luminescence | 0.003 µM |
| COP(=O)(c1cc(C)cc(CCC#N)c1)c1c(C(N)=O)[nH]c2ccc(Cl)c(F)c12 | EC50 | BH10 | MT-4 | K103/Y181C | cytopathic effect | 0.0035 µM |
| Cc1ncc(-c2ccc(O[C@H](C)COc3ccccc3)cn2)c(N2CCC(C)(C)CC2)c1[C@H](OC(C)(C)C)C(=O)O | EC50 | NL4-3 | MT-2 | - | luminescence | 0.0009 µM |
| CCN(C(=O)[C@H](Cc1cc(F)cc(F)c1)NC(=O)NS(=O)(=O)N[C@@H](Cc1cc(F)cc(F)c1)C(=O)N(CC)c1ccc2oc(=O)n(CC)c2c1)c1ccc2oc(=O)n(CC)c2c1 | EC50 | NL4-3 | MT-2 | - | luciferase | 24.73 µM |
| O=C(C(=O)N1CCN(C(=O)c2c(S)cccc2Cl)CC1)c1c[nH]c2cccc(F)c12 | EC50 | - | HeLa + HELA CD4+/CCR5 | - | luciferase | <10 µM |
| CC(C)COC(=O)c1cc(NC(=S)OC(C)C)ccc1Cl | EC50 | - | CEM | RT-Y181C | syncytia | 6.063 µM |
| COc1ccc(F)c2c(C(=O)C(=O)N3CCN(C(=O)c4ccccc4)CC3)c[nH]c12 | EC50 | - | HeLa + HELA CD4+/CCR5 | - | luciferase | <10 µM |
| COc1ccc(N(C)C(=O)[C@H](Cc2ccccc2)NC(=O)NS(=O)(=O)N[C@@H](Cc2ccccc2)c2nnc(SC)o2)cc1 | EC50 | NL4-3 | MT-2 | - | luciferase | 6.78 µM |

4 of the rows above, restated:

SMILES | endpoint | strain or isolate | cell line | changes | read by | value
CCCOC(=S)Nc1ccc(Cl)c(C(=O)OC(C)C)c1 | EC50 | - | CEM | RT-E138K | syncytia | 2.06 µM
CN1C(=O)CN2CCn3c(nc(C(=O)NCc4ccc(F)cc4)c(O)c3=O)C1C2 | EC50 | - | MT-4 | - | p24 | <50 µM
COc1ccc(N(C)C(=O)C(Cc2cc(F)cc(F)c2)NC(=O)c2cccc(C(=O)N[C@@H](Cc3cc(F)cc(F)c3)C(=O)N(C)c3ccc(OC)cc3)c2)cc1 | EC50 | NL4-3 | MT-2 | - | luciferase | 0.04 µM
COP(=O)(c1cc(C)cc(CCC#N)c1)c1c(C(N)=O)[nH]c2ccc(Cl)c(F)c12 | EC50 | BH10 | MT-4 | K103/Y181C | cytopathic effect | 0.0035 µM